Results of unrelated studies side by side (data: NIAID ChemDB).

All rows: growth or infection tests; agent: Mycobacterium avium

Blank or dashed fields: not listed here.

SMILES	read-out	read by	conditions	strain or isolate	value
Cc1cc(CN2CCOCC2)c(C)n1Cc1ccccc1	MIC			103317	>64 µg/mL
CCCCCCCNC(=O)Nc1ccc(S(=O)(=O)Nc2cc(C)on2)cc1	MIC100	broth dilution / absorbance	21 d	330/88	62.5 µM
CC1CN(c2c(F)c(N)c3c(=O)c(C(=O)O)cn(C4CC4)c3c2F)CCN1C	MIC			1915112	1 µg/mL
Nc1ccc(C(=O)O)c(O)c1	Mean MIC			ATCC 25291	28 µg/mL
CCCCCCCCCCNC(=O)Nc1ccc(S(=O)(=O)Nc2cc(C)on2)cc1	MIC100	broth dilution / absorbance	14 d	330/88	125 µM
O=C(Nc1ccc(Cl)c(Cl)c1)c1cc(Cl)ccc1OP(=O)(OCc1ccccc1)OCc1ccccc1	MIC		7 d	MY330/88	125 µM
CC[C@H]1OC(=O)[C@H](C)[C@@H](O[C@H]2C[C@@](C)(OC)[C@@H](O)[C@H](C)O2)[C@H](C)[C@@H](O[C@@H]2O[C@H](C)C[C@H](N(C)C)[C@H]2O)[C@](C)(OC)C[C@@H](C)C(=O)[C@H](C)[C@@H](O)[C@]1(C)O	Mean MIC			ATCC 25291	5 µg/mL
c1ccc(CSc2ncn[nH]2)nc1	MIC			MY330/88	1000 µM
O=C(O)c1cccc2ccccc12	MIC			MAC104	3200 µg/mL
CC[C@@H](CO)NCCN[C@@H](CC)CO	MIC			RG3	8 µg/mL
CCn1cc(C(=O)O)c(=O)c2cc(F)c(C(C)=O)cc21	MIC			1915112	>32 µg/mL
NC1CCN(c2nc3c(cc2F)c(=O)c(C(=O)O)cn3-c2ccc(F)cc2F)C1	MIC			I	32 µg/mL
CC(C)(C)c1cnc(C(=O)/C=C/c2ccc(F)cc2)cn1	MIC	absorbance		Chester	>25 µg/mL
CO[C@H]1/C=C/O[C@@]2(C)Oc3c(C)c(O)c4c(O)c(c(/C=N/N5CCN(C)CC5)c(O)c4c3C2=O)NC(=O)/C(C)=C\C=C\[C@H](C)[C@H](O)[C@@H](C)[C@@H](O)[C@@H](C)[C@H](OC(C)=O)[C@@H]1C	MIC			5-74	10 µg/mL
Cc1c(CN2CCOCC2)cc(-c2ccc(Cl)cc2)n1C1CCCCC1	MIC			103317	>64 µg/mL
c1cncc(CSc2nc3ccccc3s2)c1	MIC			MY330/88	125 µM
CCCCCNC(=O)Nc1ccc(S(=O)(=O)Nc2cc(C)on2)cc1	MIC100	broth dilution / absorbance	21 d	330/88	1000 µM
NCC[C@H](O)C(=O)N[C@@H]1C[C@H](N)[C@@H](O[C@H]2O[C@H](CN)[C@@H](O)[C@H](O)[C@H]2O)[C@H](O)[C@H]1O[C@H]1O[C@H](CO)[C@@H](O)[C@H](N)[C@H]1O	MIC90			9 isolates (HIV+)	64 µg/mL
CO[C@H]1/C=C/O[C@@]2(C)Oc3c(C)c(O)c4c(O)c(c5c(c4c3C2=O)NC2(CCN(CC(C)C)CC2)N=5)=NC(=O)/C(C)=C\C=C\[C@H](C)[C@H](O)[C@@H](C)[C@@H](O)[C@@H](C)[C@H](OC(C)=O)[C@@H]1C	MIC			Isolate 90-1815	0.2 µg/mL
C[C@@H]1CN(c2c(F)c(N)c3c(=O)c(C(=O)O)cn(C4CC4)c3c2F)C[C@H](C)N1	MIC90			9 isolates (HIV+)	8 µg/mL
N[C@@H]1CONC1=O	MIC			453	16 µg/mL
CCOc1c(N2CCC(C(C)(C)N)C2)c(F)cc2c(=O)c(C(=O)O)cn(C3CC3)c12	MIC			1915112	≤4 µg/mL
O=C1C=CC(=O)c2c(O)cccc21	MIC			MAC104	12.5 µg/mL
O=C(Nc1ccc(Br)cc1)c1cc(Cl)ccc1OP(=O)(Oc1ccccc1)Oc1ccccc1	MIC		7 d	MY330/88	16 µM
COc1ccc2ccc(=O)oc2c1CC(=O)C(C)C	MIC			Isolate 733 HIV-positive	>100 µg/mL
O=C(Nc1ccc(Br)cc1)c1cc(Cl)ccc1OP(=O)(c1ccccc1)c1ccccc1	MIC		14 d	MY330/88	16 µM
O=C(O)c1cn(C2CC2)c2c(F)c(N3CCS(=O)CC3)c(F)cc2c1=O	MIC			TMC 1403	≤0.25 µg/mL
CC(N)C1CCN(c2nc3c(cc2F)c(=O)c(C(=O)O)cn3C2CC2)C1	MIC			PI4/44	16 µg/mL
O=C1C=CC(=O)c2ccccc21	MIC			MAC104	100 µg/mL
CC(C)(C)c1cnc(C(=O)/C=C/c2ccccc2Br)cn1	MIC	absorbance		Chester	100 µg/mL
CCC[C@@H]1C[C@@H](C(=O)N[C@@H]([C@H]2O[C@H](SC)[C@H](O)[C@@H](O)[C@H]2O)[C@@H](C)O)N(C)C1	Mean MIC			ATCC 25291	120 µg/mL
Cc1c(CN2CCOCC2)cc(-c2ccc(Cl)cc2)n1Cc1ccccc1	MIC			103317	>64 µg/mL
CC1CN(c2c(F)c(N)c3c(=O)c(C(=O)O)cn(C4CC4)c3c2F)CCN1C	MIC			RG1	0.25 µg/mL
CC[C@@H]1C(=O)OC[C@@H]1Cc1cncn1C	MIC			Isolate 733 HIV-positive	>100 µg/mL
c1cc(CSc2ncn[nH]2)ccn1	MIC			MY330/88	1000 µM
CC(C)Cc1cnc(C(=O)/C=C/c2ccc(Br)cc2)cn1	MIC	absorbance		Chester	>100 µg/mL
CC1CN(c2c(F)cc3c(=O)c(C(=O)O)cn(C4CC4)c3c2F)CCN1	MIC			1915112	2–4 µg/mL
CC(C)(C)c1ccc(CNc2ccc(N3CCOCC3)cc2)cc1	MIC			103317	2 µg/mL
NC1CCN(c2c(F)cc3c(=O)c(C(=O)O)cn(C4CC4)c3c2Cl)C1	MIC			II	32 µg/mL
CC[C@H]1C[C@@H]2CN3CCc4c([nH]c5ccc(OC)cc45)[C@](C(=O)OC)(C2)[C@H]13	MIC			Isolate 733 HIV-positive	>200 µg/mL
O=C(/C=C/c1ccc(F)cc1)c1cnccn1	MIC	absorbance		Chester	100 µg/mL
Cc1c(CN2CCOCC2)c(CN2CCOCC2)c(C)n1Cc1ccccc1	MIC			103317	>64 µg/mL
O=C1C=CC(=O)c2c(O)ccc(O)c21	MIC			MAC104	6.25 µg/mL
CO[C@H]1/C=C/O[C@@]2(C)Oc3c(C)c(O)c4c(O)c(c5c(c4c3C2=O)NC2(CCN(CC(C)C)CC2)N=5)=NC(=O)/C(C)=C\C=C\[C@H](C)[C@H](O)[C@@H](C)[C@@H](O)[C@@H](C)[C@H](OC(C)=O)[C@@H]1C	Median MIC			ATCC 25291	0.5 µg/mL
CCNC(C)C1CCN(c2c(F)cc3c(=O)c(C(=O)O)cn(C4CC4)c3c2OC)C1	MIC90			14 strains	8 µg/mL
COc1ccc(-n2c(=O)oc3ccccc3c2=O)cc1	MIC			MY330/88	31 µM
CCCc1cnc(C(=O)/C=C/c2ccccc2Br)cn1	MIC	absorbance		Chester	>100 µg/mL
c1ccc2c(CSc3nc4ccccc4s3)cccc2c1	MIC			MY330/88	500 µM
COc1cc([C@H]2Oc3c(OC)cc(/C=C/C=O)cc3[C@@H]2COC(C)=O)ccc1O	MIC			ATCC 25291	128 µg/mL
CC(C)(C)c1ccc(CNc2ccc(N3CCSCC3)cc2)cc1	MIC			103317	2 µg/mL
C[C@@H]1CN(c2c(F)c(N)c3c(=O)c(C(=O)O)cn(C4CC4)c3c2F)C[C@H](C)N1	MBC				4 µg/mL
CC[C@H]1OC(=O)[C@H](C)[C@@H](O[C@H]2C[C@@](C)(OC)[C@@H](O)[C@H](C)O2)[C@H](C)[C@@H](O[C@@H]2O[C@H](C)C[C@H](N(C)C)[C@H]2O)[C@](C)(O)C[C@@H](C)CN(C)[C@H](C)[C@@H](O)[C@]1(C)O	MIC			3090	8 µg/mL
O=C(Nc1ccccc1)c1ccccc1OP(=O)(Oc1ccccc1)c1ccccc1	MIC		14 d	MY330/88	500 µM
CCOc1c(N2CCC(C(C)(C)N)C2)c(F)cc2c(=O)c(C(=O)O)cn(C3CC3)c12	MIC90			14 strains	8 µg/mL
Cc1cc(-c2cc3c(cc2F)c(=O)c(C(=O)O)cn3C2CC2)cc(C)n1	MBC			3350	4 µg/mL
CC[C@H]1OC(=O)[C@H](C)[C@@H](O[C@H]2C[C@@](C)(OC)[C@@H](O)[C@H](C)O2)[C@H](C)[C@@H](O[C@@H]2O[C@H](C)C[C@H](N(C)C)[C@H]2O)[C@](C)(OC)C[C@@H](C)C(=O)[C@H](C)[C@@H](O)[C@]1(C)O	MIC			RG2	0.12 µg/mL
CN1CCN(c2cc3c(cc2F)c(=O)c(C(=O)O)cn3-c2ccc(F)cc2)CC1	MIC90			22 strains	128 µg/mL
CC12C(=O)c3cccc(O)c3C(=O)C1CC1=C2C(=O)c2c(O)cccc2C1=O	MFC				>800 µg/mL
C/C=C1/CN2[C@H]3C[C@@H]1[C@@H](CO)[C@@H]2Cc1c3[nH]c2ccc(OC)cc12	MIC			Isolate 733 HIV-positive	>100 µg/mL
CC(C)N=c1cc2n(-c3ccc(Cl)cc3)c3ccccc3nc-2cc1Nc1ccc(Cl)cc1	MIC			453	0.06 µg/mL
O=C(O)c1cn(-c2ccc(F)cc2)c2cc(N3CCNCC3)c(F)cc2c1=O	MIC50			22 strains	8 µg/mL
O=C(O)c1cn(C2CC2)c2c(F)c(N3CCC(N4CCCC4)C3)c(F)cc2c1=O	MIC			PI4/44	2 µg/mL
CC1=CC(=O)c2c(O)cccc2C1=O	MFC				>1000 µg/mL
Cc1cc(CN2CCOCC2)c(C)n1C1CCCCC1	MIC			103317	>64 µg/mL
O=C(Nc1ccc(Br)cc1)c1cc(Cl)ccc1OP(=O)(OCc1ccccc1)OCc1ccccc1	MIC		7 d	MY330/88	62.5 µM
CO[C@H]1/C=C/O[C@@]2(C)Oc3c(C)c(O)c4c(O)c(c(/C=N/N5CCN(C)CC5)c(O)c4c3C2=O)NC(=O)/C(C)=C\C=C\[C@H](C)[C@H](O)[C@@H](C)[C@@H](O)[C@@H](C)[C@H](OC(C)=O)[C@@H]1C	MIC			1435	>8 µg/mL
CC1CN(c2cc3c(cc2F)c(=O)c(C(=O)O)cn3-c2ccc(F)cc2F)CCN1	MIC90			22 strains	32 µg/mL
CCCCNC(=O)Nc1ccc(S(=O)(=O)Nc2cc(C)on2)cc1	MIC100	broth dilution / absorbance	14 d	330/88	1000 µM
O=c1oc2ccccc2c(=O)n1-c1ccc(Cl)c(Cl)c1	MIC			MY330/88	16 µM
CO[C@H]1/C=C/O[C@@]2(C)Oc3c(C)c(O)c4c(O)c(c5c(c4c3C2=O)NC2(CCN(CC(C)C)CC2)N=5)=NC(=O)/C(C)=C\C=C\[C@H](C)[C@H](O)[C@@H](C)[C@@H](O)[C@@H](C)[C@H](OC(C)=O)[C@@H]1C	Median MIC			30 strains	0.5 µg/mL
O=C(/C=C/c1ccccc1Br)c1cnccn1	MIC	absorbance		Chester	100 µg/mL
CC(=O)O[C@H]1C[C@@]2(C)[C@@H](C[C@@H](O)[C@H]3[C@@]4(C)CC[C@@H](O)[C@@H](C)[C@@H]4CC[C@@]32C)/C1=C(\CCC=C(C)C)C(=O)O	MIC50			22 strains	32 µg/mL
O=C(Nc1cccc(F)c1)c1ccccc1O	MIC			MY330/88	62 µM
NC(=S)c1cc(SCc2ccncc2)ccn1	MIC			MY330/88	62.5 µM
O=C(Nc1ccc(Br)cc1)c1ccccc1O	MIC			MY330/88	31 µM
CO[C@H]1/C=C/O[C@@]2(C)Oc3c(C)c(O)c4c(O)c(c(N5CCN(Cc6c(C)cc(C)cc6C)CC5)c(O)c4c3C2=O)NC(=O)/C(C)=C\C=C\[C@H](C)[C@H](O)[C@@H](C)[C@@H](O)[C@@H](C)[C@H](OC(C)=O)[C@@H]1C	MBC			3350-4	16 µg/mL

The last 4 rows once more:

SMILES | read-out | read by | conditions | strain or isolate | value
O=C(Nc1cccc(F)c1)c1ccccc1O | MIC |  |  | MY330/88 | 62 µM
NC(=S)c1cc(SCc2ccncc2)ccn1 | MIC |  |  | MY330/88 | 62.5 µM
O=C(Nc1ccc(Br)cc1)c1ccccc1O | MIC |  |  | MY330/88 | 31 µM
CO[C@H]1/C=C/O[C@@]2(C)Oc3c(C)c(O)c4c(O)c(c(N5CCN(Cc6c(C)cc(C)cc6C)CC5)c(O)c4c3C2=O)NC(=O)/C(C)=C\C=C\[C@H](C)[C@H](O)[C@@H](C)[C@@H](O)[C@@H](C)[C@H](OC(C)=O)[C@@H]1C | MBC |  |  | 3350-4 | 16 µg/mL

Lines come from different laboratories, so protocols vary. A number after MIC or MFC names an inhibition level or a share of isolates. a–b is a range or a potency band.